Source: publication PMC10755728, “Inhibitors of the Elastase LasB for the Treatment of Pseudomonas aeruginosa Lung Infections” (ACS Central Science, 2023)

Chains of the proteins cited; added tags and fusions are not shown. Residues count along the entry.
UniProt Q02RJ6, 198-498 limits assumed: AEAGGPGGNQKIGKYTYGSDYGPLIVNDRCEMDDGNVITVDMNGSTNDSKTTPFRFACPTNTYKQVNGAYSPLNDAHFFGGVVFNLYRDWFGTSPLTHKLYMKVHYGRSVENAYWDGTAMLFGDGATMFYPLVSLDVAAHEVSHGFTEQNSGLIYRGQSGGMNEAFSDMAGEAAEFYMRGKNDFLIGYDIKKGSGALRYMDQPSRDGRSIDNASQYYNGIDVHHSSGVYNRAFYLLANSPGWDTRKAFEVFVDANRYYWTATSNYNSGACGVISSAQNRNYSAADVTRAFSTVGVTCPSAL

Tests used:
[1] = target: LasB (Pseudomonas aeruginosa, UniProt Q02RJ6); details: for IC50: read-out: LasB IC50, FRET-based assay; for fold drop in activity compared to the most active compounds of the isobutyl series: vs IC50 ∼ 25 nM
[2] = tested on: P. aeruginosa PA14; assay: Bacterial growth inhibition assay; details: 100 µM compound concentration
[3] = tested on: HepG2; assay: MTT cytotoxicity assay, HepG2; details: after 48h at 100 µM
[4] = tested on: HEK293; assay: MTT cytotoxicity assay, HEK293; details: after 48h at 100 µM

| SMILES | IC50 [1] [nM] | fold drop in activity compared to the most active compounds of the isobutyl series [1] [fold] | further results |
| --- | --- | --- | --- |
| COC(=O)c1ccc(NC(=O)C(CC(C)C)P(=O)(O)O)cn1 (stereo not shown) | 190 | 8 |  |
| CC(C)CC(C(=O)Nc1cnc(Cl)nc1)P(=O)(O)O (stereo not shown) | 500 |  |  |
| CC(C)CC(C(=O)Nc1ccc(Cl)nn1)P(=O)(O)O (stereo not shown) |  | 800 |  |
| CCCC(C(=O)Nc1ccc(Cl)c(Cl)c1)P(=O)(O)O (stereo not shown) | 2050 |  |  |
| CC(C)CC(C(=O)Nc1ccc(S(=O)(=O)C(F)(F)F)cc1)P(=O)(O)O (stereo not shown) | 27.7 |  | Percent (%) growth inhibition of P. aeruginosa PA14 [2]: < 10%; % growth inhibition HepG2 [3]: 12 ± 6%; % growth inhibition HEK293 [4]: 23 ± 0% |
| CC(C)CC(C(=O)Nc1cnc(Br)nc1)P(=O)(O)O (stereo not shown) | 380 |  |  |
